Reference: patent publication US7910574B2, “Treatments for the control of schistosomiasis” (Illinois State University, priority 2007, dated 2011)

Experiments:
[1] = molecular target: parasite TGR (thioredoxin reductase activity) (Schistosoma mansoni, UniProt Q962Y6); experiment: Thioredoxin reductase activity of TGR in homogenates of treated cultured worms; settings: 50 μM, 18 hrs treatment of cultured worms
[2] = molecular target: parasite TGR (GSH reductase activity) (Schistosoma mansoni, UniProt Q962Y6); experiment: Glutathione reductase activity of TGR in homogenates of treated cultured worms; settings: 50 μM, 18 hrs treatment of cultured worms
adult S. mansoni worms = experiment: Inhibitor studies on cultured adult worms (motility, mortality); settings: freshly cultured S. mansoni worms

Substance: (N-benzothiazol-2-yl-phenyl-phosphoryl)-1,3-thiazol-2-amine
- reduction of thioredoxin reductase activity of parasite TGR vs carrier control [1]: 69%
- reduction of GSH reductase activity of parasite TGR vs carrier control [2]: 59%
- time to kill the worms (adult S. mansoni worms; 25 μM): 96 h
- time to kill the worms (adult S. mansoni worms; 50 μM): 24 h
